# System: sorting reaction (sortase cleavage of Seb-Spa490-524 P2 precursor at the LPXTG motif)
# Settings: Compound 5 mM added 15 seconds after beginning of pulse; ratio of Seb-Spa490-524 P2 precursor to mature anchored species; average of three ± SD
row,Molecule,[P2]/[M]
1,p-hydroxymercuribenzoic acid,1.51 ± 0.04
2,O=C(O)CI [iodoacetic acid],0.13 ± 0.02
3,NC(=O)CI [iodoacetamide],0.12 ± 0.01
4,"O[C@H](CS)[C@H](O)CS (racemic) [dithiothreitol (DTT), dithiothreitol]",0.13 ± 0.03

# From patent US7101692B2 (priority 1999, dated 2006)
